## Sequence variants of PSTVd stem 3 after infection

Source: Wu et al. 2024 (doi:10.1371/journal.ppat.1012142), supplementary data.

PSTVd intermediate strain, stem 3: wild type GUGGUUCCGGAACCGC, pool pattern GUGGUUCCGNANNCNN; upper and lower strand joined, each 5' to 3', the first 8 letters being the upper strand.

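Three N. benthamiana plants were inoculated with the whole mutant pool. Progeny were sequenced from the inoculated region (day 5), the margin of the inoculated leaf (day 10) and systemic leaves (day 12).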

Numbers give reads per thousand; 0 = not seen among the reads, higher = more abundant.
Each value is the mean of three plants.
"Pool" is the share in the plasmid pool used as inoculum, on the same scale.
The inoculated region was read from the minus strand, the other sites from the plus strand.
Sequences that differ at fixed positions probably stem from PCR or sequencing errors, and defective variants can be carried along by functional ones.

sequence	pool	inoculated region	leaf margin	systemic leaves
GUGGUUCCGUAGUCAG	0.800	0.685	0.578	0
GUUGUUCCGGAUGCGA	0.0154	0	0	0
GUGGUUCCGUAAACCC	1.25	0.399	0.0200	0.0559
GUGGUUCCGAAGCCUC	1.08	0.781	0.0106	0
GUGGUUCCGUACCCCC	1.28	0.450	0.0427	0
GUGGUUCCGGAGACAC	0.877	0.679	0	0
GUGGUUCCGGACGCAG	0.800	0.309	0.0120	0
GUGGUUCCGAAUACCU	0.769	0.787	0.107	0.0186
GUGGUUCCGAACUCCU	1.48	1.24	1.05	1.17
GUGGUUCCGCAGUCUA	1.12	0.831	0.174	0.0123
GUGGUUCCGAAUCCAC	0.800	0.752	0.169	0
GUGGUUCCGAAUGCUG	1.29	0.312	0.0438	0.0683
GUGGUUCCGCACGCAA	0.862	0.247	0	0
GUGGUUCCGGAAUCCU	0.816	0.853	0.143	0
GUGGUUCCGAAGUCUA	0.616	0.869	0.0215	0.0249
GUGGUUCCGGACACUC	1.06	0.363	0.0212	0
GUGGUUCCGUAUGCUA	0.800	0.274	0.0332	0
GUGGUUCCGUAGCCAA	0.846	0.708	0.0335	0
GUGGUUCCGUAUCCGC	0.877	0.315	0.0226	0.0123
GUGGUUCCGCACCCGA	0.846	0.390	0.0106	0
GUGGUUCCGUACGCGG	0.693	0.273	0.0215	0
GUGGUUCCGAAUGCAU	0.893	0.872	0.517	0
GUGGUUCCGUAUCCUU	0.893	0.391	0.0332	0.0392
GUGGUUCCGUAAGCAU	1.51	1.04	0	0
GUGGUUCCGCAUUCUU	0.723	0.772	0.156	0
GUGGUUCCGGAGUCCC	0.877	0.815	0.0120	0
GUGGUUCCGGAUCCAU	0.693	0.682	0.132	0
GUGGGUCCGAAGCCAC	0.0154	0	0	0.00811
GUGGUUCCGCAGACUG	0.908	0.281	0.0120	0.00621
GUGGUUCCGCACGCUC	0.800	0.369	0.0120	0
GUGGUUCCGCACUCCG	1.32	0.550	0.0241	0.0637
GUGGUUCCGGAAACCA	0.708	0.302	0.0453	0
GUGGUUCCGUACGCAU	0.769	0.804	0.155	0
GUGGUUCCGCAGUCGA	0.769	0.782	0.131	0
GUGGUUCCACAUACGA	0.0462	0	0	0
GUGGUUCCGUAAACCA	1.11	0.553	0.116	0.0186
GUGGUUCCGUACUCGU	0.908	0.801	0.0120	0
GUGGUUCCGGAUCCCG	0.923	0.290	0.0106	0
GUGGUUCCGAACUCUU	0.970	0.666	0.0215	1.17
GUGGUUCCGUAUCCUC	0.923	0.232	0.0120	0
GUGGUUCCGGAUGCAA	1.71	0.880	0	0.0806
GUUGUUCCGCAGUCCG	0.0154	0	0	0
GUGGUUCCGGAGCCUA	0.877	0.283	0.0120	0
GUGGUUCCGGACGAUG	0.0154	0	0	0
GUGGUUCCGAAUACUA	1.68	0.967	0.0120	0.0630
GUGGUUCCGCAGGCAU	0.923	0.665	0.412	0
GUGGUUCCGAAAUCCG	0.954	0.733	0	0
GUGGUUCCGAAUGCAA	0.816	0.822	0.0963	0
GUGGUUCCGGAUACAA	0.693	0.360	0	0
GUGGUUCCGAAGACUA	0.769	0.645	0.167	0
GUGGUUCCGCACACGA	0.800	0.356	0.0318	0
GUGGUUCCGAAUUCCC	0.970	0.835	0.464	0
GUGGUUCCGCACACGU	0.831	0.269	0.0318	0
GUGGUUCCGCAAACCC	0.754	0.303	0.00944	0
GUGGUUCCGCACACUG	0.693	0.362	0.0120	0
GUGGUUCCGCAAGCUU	0.831	0.386	0.0106	0
GUGGUUCCGCACACUA	1.05	0.283	0	0
GUGGUUCCGCAUCCCU	0.631	0.303	0.0226	0
GUGGUUCCGCAACCAG	0.954	0.267	0.0212	0

The last 8 entries again:

sequence,pool,inoculated region,leaf margin,systemic leaves
GUGGUUCCGAAUUCCC,0.970,0.835,0.464,0
GUGGUUCCGCACACGU,0.831,0.269,0.0318,0
GUGGUUCCGCAAACCC,0.754,0.303,0.00944,0
GUGGUUCCGCACACUG,0.693,0.362,0.0120,0
GUGGUUCCGCAAGCUU,0.831,0.386,0.0106,0
GUGGUUCCGCACACUA,1.05,0.283,0,0
GUGGUUCCGCAUCCCU,0.631,0.303,0.0226,0
GUGGUUCCGCAACCAG,0.954,0.267,0.0212,0

Wild type was 17.3 per thousand in the pool and the most common sequence in every sample (inoculated region 330, 345, 235; leaf margin 794, 766, 816; systemic leaves 830, 792, 869).
Samples held 27,691 to 54,225 reads, so the smallest values rest on one or two reads.